According to the supplement of paper PMC9931576:
Human monoclonal antibodies against the spike receptor-binding domain (heavy:light variable regions). IC50 against pseudoviruses bearing the spike of naturally observed variants; lower = stronger; >10 µg/ml means not reached at the top dose. No active / inactive call. The stated detection limit is 0.0005 µg/ml; values near or below 0.001 µg/ml lie at the floor of the assay.

Assays:
Assay in all cases: pseudovirus neutralization IC50; higher = weaker neutralization
[1] = target: SARS-CoV-2 Omicron BA.1 spike pseudovirus
Procedure: (§1)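 Single-round VSV luciferase pseudovirus mixed with antibody dilutions for 1 h and put on Huh-7 cells for about a day; IC50 from the dose curve.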

[2] = target: SARS-CoV-2 Omicron BA.2 spike pseudovirus
Procedure: as §1

[3] = target: SARS-CoV-2 Omicron BA.2.75 spike pseudovirus
Procedure: as §1

[4] = target: SARS-CoV-2 Omicron BA.5 spike pseudovirus
Procedure: as §1

[5] = target: SARS-CoV-2 Omicron BQ.1.1 spike pseudovirus
Procedure: as §1

[6] = target: SARS-CoV-2 Omicron XBB spike pseudovirus
Procedure: as §1

[7] = target: SARS-CoV-2 early D614G spike pseudovirus
Procedure: as §1

Binder	pseudovirus neutralization IC50 [1] [µg/mL]	pseudovirus neutralization IC50 [2] [µg/mL]	pseudovirus neutralization IC50 [3] [µg/mL]	pseudovirus neutralization IC50 [4] [µg/mL]	pseudovirus neutralization IC50 [5] [µg/mL]	pseudovirus neutralization IC50 [6] [µg/mL]	pseudovirus neutralization IC50 [7] [µg/mL]
BD56-685 (protein) chain 1: QVQLVQSGAEVKKPGSSIKVSCKWASGGSFSSYPISWVRQAPGQGLEWMGGIIPIFGTPNYAQKFQGRVAITADESTSTAYMELSSLRSDDTGVYYCATEADVVGPTFRYLQYWGQGTLVTVSS chain 2: DIVMTQSPDSLAVSLGERATINCKSSQSVLLRSNNKNYVAWYQQKPGQPPKLLIYWASTRESGVPDRFSGSGSGTDFTLTISSVQAEDVAVYYCQQYYIVPALTFGGGTKVEIK	3.4	2.62	2.01	3.95	> 10	> 10	3.34
BD56-682 (protein) chain 1: EVQLVESGGGVVQPGGSLRLSCVASGFNSDDYAMHWVRQAPGKGLEWVSLISGDGGWVDYADSVKGRFTISRDNSKNSLYLQMNSLRGDDTGLYYCAKDTALHWGGAYTGDGAFDIWGQGTMVTVSS chain 2: QSVLTQPPSASGTPGQRVTISCSGSSSNIATYNVNWYQQFPGTAPKLLIYSNNQRPAGVPDRFSGSKSGTSASLAISGLQSEDEAEYSCAVWDDNLNVPVFGGGTKLTVL	0.133	0.141	0.125	0.093	> 10	> 10	0.129
BD56-686 (protein) chain 1: QVQLQESGPGLVKPSQTLALTCTVSGGSISSGGYYWSWIRQHPGKGLEWIGYIYYSGITYYNPSLESRVTISIDTSKNQFSLKLRSVTAADTAVYYCARDGPSIAAPSPWFDPWGQGTLVTVSS chain 2: EIVLTQSPATLSLSPGERATLSCRASQSVSSYLAWYQQKPGQAPRLLIYDASYRATGIPARFSGSGSGTDFTLTISSLEPEDFAVYYCQQRFNWPPFTFGQGTRLEIK	> 10	> 10	> 10	> 10	> 10	> 10	> 10
BD56-683 (protein) chain 1: QVQLVESGGGVVQPGRSLRLSCAASGFTFSSYGMHWVRQAPGKGLEWVSVISYDGSNKQYADSVKGRFTISRDNSKNTLYLQMNSLRAEDTAVYFCAKEGGHCSSTICNTKDYFDFWGQGTLVTVFS chain 2: SYVLTQPPSVSVAPGKTARITCGGDSIGSKGVHWYQQKPGQAPVLVVYDDSDRPSGIPERFSGSNSGNTATLTISRVEAGDEADYYCQVWDSSSGLFYVFGTGTKVTVL	> 10	> 10	> 10	> 10	> 10	> 10	> 10
BD56-669 (protein) chain 1: QVQLEQSGAEVKKPGSSVKVSCKASGGTFSSYTISWVRQAPGQGLEWMGRIIPILGIPNYAQKFQGRVTVTADRSTSTAYMELSSLRSEDTAVYYCARDQGYSGYGVNWYFDLWGRGTLVIVSS chain 2: QSVLTQPPSVSGAPGQRVTISCTGSSSNIGAGYDVHWYQHLPGTAPKLLIYGNSNRPSGVPDRFSGSKSGTSASLAITGLQAEDEADYYCQSYDSSLSDCVFGTGTKVTVL	2.3	2.51	2.11	> 10	> 10	> 10	2.74
BD56-676 (protein) chain 1: QVQLVQSGAEVKKPGASVKVSCKASGYTFISYGISWVRQAPGQGLEWMGWITAYNGHTNSAQRLQGRVTMTTDTSTSTAYMELRNLRSDDTAVYYCARDPGYDILTGSYTMNHDAFDIWGQGTLVTVSS chain 2: SYELTQPSSVSVSPGQTARITCSGDVLAKKYARWFQQRPGQAPVLVIYKDSERPSGVPDRFSGSSSGTTVTLTISGAQVEDEADYYCFSAADNDRVFGGGTKLTVL	> 10	> 10	> 10	> 10	> 10	> 10	> 10
